Source: patent US10611795B2, “Methods for viral inactivation using eco-friendly detergents” (priority 2013, dated 2020)

Columns and labels:
MAb3 [1] = assay: Size exclusion chromatography (SEC) of product after detergent treatment; settings: three hours ambient
DNA = DNA quantitation (TaqMan PCR assay); settings: three hours ambient
MAb3 [2] = assay: iCIEF charge heterogeneity after detergent treatment; settings: three hours ambient
[3] = Roche's inherent biodegradability test (OECD 302); cited from earlier work
MAb1 [4] = assay: Size exclusion chromatography (SEC) of product after detergent treatment; settings: MAb1 HCCF, detergent mixing study
MAb1 [5] = assay: iCIEF charge heterogeneity after detergent treatment; settings: MAb1 HCCF, detergent mixing study

Row | Molecule | SEC-HMWS (%) (MAb3 [1]; MAb3 HCCF + Detergent) | SEC-LMWS (%) (MAb3 [1]; MAb3 HCCF + Detergent) | SEC-main (%) (MAb3 [1]; MAb3 HCCF + Detergent) | SEC-HMWS (%) (MAb3 [1]; MAb3 N. ProA pool + detergent) | SEC-LMWS (%) (MAb3 [1]; MAb3 N. ProA pool + detergent) | SEC-main (%) (MAb3 [1]; MAb3 N. ProA pool + detergent) | DNA (ppm), HCCF + Detergent (DNA; MAb3 HCCF) | DNA (ppm), Adj. ProA pool + Detergent (DNA; MAb3 adjusted protein A pool) [ppm] | iCIEF-acidic (%) (MAb3 [2]; MAb3 HCCF + Detergent) | iCIEF-basic (%) (MAb3 [2]; MAb3 HCCF + Detergent) | iCIEF-main (%) (MAb3 [2]; MAb3 HCCF + Detergent) | iCIEF-acidic (%) (MAb3 [2]; MAb3 N. ProA pool + detergent) | iCIEF-basic (%) (MAb3 [2]; MAb3 N. ProA pool + detergent) | iCIEF-main (%) (MAb3 [2]; MAb3 N. ProA pool + detergent) | TOC removal by day 28 [3] | SEC % HMWS (MAb1 [4]) [%] | SEC % LMWS (MAb1 [4]) [%] | iCIEF % Acidic (MAb1 [5]) [%] | iCIEF % Basic (MAb1 [5]) [%] | iCIEF % Main (MAb1 [5]) [%]
1 | CCCCCCCC(=O)O [caprylate, caprylic acid] | 0.8 | 0.1 | 99.1 | 1.8 | 0.1 | 98.1 | <LOQ | 0.002 | 57.5 | 2.71 | 39.8 | 52.0 | 3.38 | 44.6 |  |  |  |  |  | 
2 | Polysorbate 20 |  |  |  |  |  |  |  |  |  |  |  |  |  |  | test (OECD 302): 40% |  |  |  |  | 
3 | Polysorbate 80 |  |  |  |  |  |  |  |  |  |  |  |  |  |  | test (OECD 302): 50% | 7.5 | 0.2 | 33.7 | 2.2 | 64.1
